Results from ChEMBL document CHEMBL5385915 (J Med Chem, 2024).
Active and inactive are the calls of the source. The calls are words filed in the database; no cut-off is given here.

Tested on: Mycobacterium tuberculosis variant bovis
Assay: Antibacterial activity against Mycobacterium bovis BCG harboring pTIC6-fbpA overexpressing Ag85A by end point resazurin assay

O=c1c2ccccc2[se]n1-c1ccccc1
Activity: inactive
